In the data set the target is FadD1 (Pseudomonas aeruginosa PAO1) (UniProt Q9HYU4). Kind of data set: EMSA. As to conditions: residues 1-562; probe letters rebuilt from the primers and the genome.

One sequence from publication doi:10.1101/2024.06.08.598097 can be followed below.

A negative result means that nothing was seen under these conditions.

Take “ATCATCCTGAGCATCTCCGAGAGCACGGTGAACTTCCACCACAAGAACATCCAGAAGAAGTTCGACGCGCCGAACAAGACGCTGGCTGCCGCCTACGCCGCGGCGCTGGGTCTCATCTGAAGCGCAGGGCGCGCCGGTCGGCGCGCCCTACCAGATCTGGCAGGTTGCCTGCCGTTCATCCTCCTTTAGTCTTCCCCCTCATGTGTGTGCTGGTATGTCCTCCGACTGAGAGGGCCCAGGAGTATCAGGGTAGGGATGCCGCCTTTTTTTCTCGGCCGGCACGACACGGGGACTTGGTCATGATCGAATTGCTCTCTGAATCGCTGGAA (double strand) [rhlI promoter]”: the binding result is “no binding”.
